Taken from: PubChem BioAssay AID504761 (Drosophila RNAi Screening Center, 2011)

Test: 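Genome-wide fly cell screen for genes dengue virus requires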 (primary screen)
Cell system: D.Mel-2 cells from Drosophila
Reagents: long dsRNA against Drosophila genes
Challenge: infection with dengue virus type 2; dose and infection time not stated
Measurement: 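Cells stained for dengue envelope protein and imaged; percent of infected cells per well on duplicate plates, ranked by infection, with stained nuclei counted for cell number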
Scale: infection score: higher = more virus-infected cells; cell count: higher = more cells in the well
Hit rule: 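Very low infection ranking in both replicate wells (chance probability at most 0.065), then a retest showing infection dropped 1.5-fold or more at p below 0.05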
Meaning of the calls: active = confirmed: knock-down lowers infection; inactive = not picked or not confirmed
The deposit covers about 22,000 reagents; below is a random part of those with a known target gene and a result. In the full data, 116 (0.52%) were called active. 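Calls depend on retest data that are not deposited; infection was ranked per plate without normalising between plates; the unit of the infection score is not given.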 The raw values are shown without normalisation. Names joined by + are all predicted targets of the reagent. Further read-outs or replicates are left out here. Reagent sequences are not shown. Not stated in the record: the amount of reagent, the time to read-out.

predicted target | dsRNA | infection score, replicate 1 | infection score, replicate 2 | cell count, replicate 1 | call
CG1428 | DRSC03708 | 27.4 | 15.5 | 5906 | inactive
Dlip1 (Dorsal interacting protein 1) | DRSC18460 | 2.87 | 9.24 | 5898 | inactive
CG6972 + CCAP | DRSC28448 | 24.5 | 5.44 | 5174 | inactive
CG13540 | DRSC04182 | 14.9 | 8.92 | 5320 | inactive
eater | DRSC15969 | 8.89 | 4.99 | 6442 | inactive
eater | DRSC22254 | 0.2 | 2.6 | 6409 | inactive
eater | DRSC29945 | 9.02 | 3.93 | 6333 | inactive
Nop56 | DRSC14699 | 3.86 | 9.23 | 5882 | inactive
CG10663 | DRSC09770 | 12.2 | 16.3 | 5643 | inactive
CG13065 | DRSC09948 | 3.76 | 1.3 | 5639 | inactive
CG13065 | DRSC28005 | 9.39 | 9.29 | 6370 | inactive
MESK2 (Misexpression suppressor of KSR 2) | DRSC04258 | 6.01 | 6.84 | 6711 | inactive
MESK2 (Misexpression suppressor of KSR 2) | DRSC28508 | 21.7 | 15 | 5184 | inactive
CG3032 | DRSC18266 | 9.22 | 25.7 | 1388 | inactive
CG3032 | DRSC24426 | 1.78 | 2.56 | 6672 | inactive
CG14795 | DRSC18513 | 7.92 | 15.2 | 7113 | inactive
CG14795 | DRSC26338 | 12.1 | 11.2 | 4989 | inactive
CG14313 | DRSC14792 | 1.54 | 5.59 | 6486 | inactive
Swt1 (Swt1 RNA endoribonuclease) | DRSC20028 | 1.44 | 1.18 | 6620 | inactive
CG11368 | DRSC17778 | 11.8 | 4.57 | 5439 | inactive
ValRS-m (Valyl-tRNA synthetase, mitochondrial) | DRSC10535 | 2.56 | 6.5 | 5742 | inactive
CG11404 | DRSC11656 | 7.39 | 15.3 | 6086 | inactive
CG11404 | DRSC27005 | 8.42 | 14.7 | 6686 | inactive
Atu (Another transcription unit) | DRSC12123 | 1.41 | 4.54 | 6154 | inactive
Obp8a (Odorant-binding protein 8a) | DRSC17868 | 2.8 | 3.13 | 6330 | inactive
Obp8a (Odorant-binding protein 8a) | DRSC29698 | 24.5 | 8.9 | 5992 | inactive
CG13711 | DRSC08320 | 2.86 | 2.17 | 6548 | inactive
CG13711 | DRSC24101 | 14.1 | 16.5 | 5855 | inactive
CG14852 | DRSC14976 | 4.15 | 7.56 | 6029 | inactive
CG14852 | DRSC23844 | 3.09 | 2.31 | 5210 | inactive
CG15253 | DRSC01871 | 20.1 | 4.69 | 3553 | inactive
CG15253 | DRSC26826 | 12.7 | 5.81 | 6483 | inactive
ltl (larval translucida) | DRSC10206 | 2.07 | 5.81 | 6675 | inactive
ltl (larval translucida) | DRSC10870 | 1.97 | 3.1 | 6555 | inactive
CG6912 | DRSC16132 | 5.46 | 27.1 | 5149 | inactive
cindr (CIN85 and CD2AP related) | DRSC14126 | 6.77 | 2.65 | 5683 | inactive
syd (sunday driver) | DRSC10963 | 5.71 | 9.94 | 6675 | inactive
syd (sunday driver) | DRSC24418 | 4.31 | 1.11 | 6330 | inactive
CG11231 (retired record) | DRSC17207 | 0.33 | 2.99 | 6084 | inactive
CG2247 | DRSC19844 | 4.78 | 3.2 | 6236 | inactive
CG8360 | DRSC03085 | 2.66 | 13.6 | 6775 | inactive
CG8360 | DRSC26870 | 6.25 | 3.59 | 6225 | inactive
Ankrd49 | DRSC01894 | 2.78 | 14.8 | 6445 | inactive
Ankrd49 | DRSC29117 | 0.94 | 16.8 | 636 | inactive
zpg (zero population growth) | DRSC09702 | 1.65 | 4.37 | 5582 | inactive
zpg (zero population growth) | DRSC26258 | 6.59 | 3.85 | 6371 | inactive
mol (moladietz) | DRSC01431 | 3.02 | 6.9 | 5854 | inactive
mol (moladietz) | DRSC01912 | 7.3 | 4.96 | 6370 | inactive
mol (moladietz) | DRSC02479 | – | 3.29 | 577 | inactive
mol (moladietz) | DRSC23967 | 17 | 4.11 | 4918 | inactive
ND-20L (NADH dehydrogenase (ubiquinone) 20 kDa subunit-like) | DRSC15414 | 3.21 | 9.33 | 6916 | inactive
CG4009 | DRSC15536 | 10.5 | 3 | 6464 | inactive
CG12644 (retired record) | DRSC17850 | 6.98 | 2.14 | 6735 | inactive
CG18507 | DRSC01334 | 2.08 | 3.49 | 6735 | inactive
CG18507 | DRSC01914 | 13.4 | 8.97 | 4887 | inactive
NaCP60E (Na channel protein 60E) | DRSC04307 | 33.6 | 45.4 | 6265 | inactive
NaCP60E (Na channel protein 60E) | DRSC21351 | 4.29 | 14.4 | 5717 | inactive
NaCP60E (Na channel protein 60E) | DRSC26120 | 2.89 | 4.56 | 6158 | inactive

Records listed so far whose gene name begins with L or l (2):
predicted target | dsRNA | infection score, replicate 1 | infection score, replicate 2 | cell count, replicate 1 | call
ltl (larval translucida) | DRSC10206 | 2.07 | 5.81 | 6675 | inactive
ltl (larval translucida) | DRSC10870 | 1.97 | 3.1 | 6555 | inactive
